Compound potency records, mixed from different reports. Data source: NIAID ChemDB in PubChem.

Shared fields: tests in culture; species: HIV-1; cell line: MT-4; read-out: fold resistance

Fold resistance has wild type as its base.

SMILES	strain or isolate	changes	read by	value
Cc1ccc(C2CC2)c(-c2ccc3c(c2C)CCCO3)c1[C@H](OC(C)(C)C)C(=O)O	NL4-3	INSTI-resistant (IN-Y143R)	luminescence	1
CCc1c(C)[nH]c(=O)c(C(C)C)c1Oc1cc(C)cc(C)c1	-	RT-L100I	cytopathic effect / MTT	1
C#CCNC(=O)CSc1cnc(Nc2ccc(C#N)cc2)nc1Oc1c(C)cc(C#N)cc1C	-	F227L V106A	MTT	51.5
CCc1c(C)[nH]c(=O)c(C(F)(F)F)c1Oc1cc(C)cc(C)c1	-	RT-L100I	cytopathic effect / MTT	10
Cc1cc(C#N)cc(C)c1Oc1nc(Nc2ccc(C#N)cc2)ncc1SCC(=O)NCCCN1CCOCC1	-	F227L V106A	MTT	40
CCc1c(C)[nH]c(=O)c(CC)c1Oc1cc(C)cc(C)c1	-	RT-Y188L	cytopathic effect / MTT	20
N#Cc1cc2[nH]c3ccccc3c2n(-c2ccc([N+](=O)[O-])cc2)c1=O	C	RT-L100I K103N	cytopathic effect / MTT	8
N#Cc1cc(Cl)cc(Oc2c(Br)ccc(CC(=O)Nc3ccc(S(N)(=O)=O)cc3Cl)c2F)c1	-	L100I V106I Y181C Y188L	-	>308
CCc1c(C)[nH]c(=O)c(I)c1Oc1cc(C)cc(C)c1	-	RT-L100I K103N	cytopathic effect / MTT	16
Cc1cc(C#N)cc(C)c1Oc1nc(Nc2ccc(C#N)cc2)ncc1SCC(=O)NCCN1CCOCC1	-	RES056	MTT	3.7
CC(C)[C@H](NC(=O)OCc1ccccn1)C(=O)N[C@@H](Cc1ccccc1)[C@@H](O)C[C@H](Cc1ccccc1)NC(=O)OCc1cccnc1	NL4-3	PR-M46I	p24	1
Cc1cc(C#N)cc(C)c1Oc1nc(Nc2ccc(C#N)cc2)ncc1SCC(=O)NCCN1CCN(C(=O)OC(C)(C)C)CC1	-	K103N	MTT	0.9
Cc1ccc(C2CC2)c(-c2cc(F)c3c(c2C)CCCO3)c1[C@H](OC1CC1)C(=O)O	NL4-3	H171Q	p24 / luminescence	1
CCc1c(C)[nH]c(=O)c(Sc2ccccc2)c1Oc1cc(C)cc(C)c1	-	RT-L100I K103N	cytopathic effect / MTT	158
Cc1cc(C#N)cc(C)c1Oc1nc(Nc2ccc(C#N)cc2)ncc1SCC(=O)NC1CC1	-	K103N	MTT	0.9
Cn1c2ccccc2c2c1cc(C#N)c(=O)n2-c1ccc([N+](=O)[O-])cc1	E	RT-F227C	cytopathic effect / MTT	3

A second listing of 2 rows from above:

SMILES,strain or isolate,changes,read by,value
CCc1c(C)[nH]c(=O)c(I)c1Oc1cc(C)cc(C)c1,-,RT-L100I K103N,cytopathic effect / MTT,16
N#Cc1cc2[nH]c3ccccc3c2n(-c2ccc([N+](=O)[O-])cc2)c1=O,C,RT-L100I K103N,cytopathic effect / MTT,8

An empty or dashed field is not shown. Rows are shuffled and stem from different studies.